Values quoted from earlier work in patent publication US8357692B2, “Methods of treatment of bone degenerative diseases” (Washington University, priority 2010, dated 2013).
Read-outs that look alike come from different tables or passages of the source.

Tested on: P. falciparum FCR-3
Details: cytotoxicity/antimalarial activity, cited from earlier work

Structure (SMILES) | selectivity (Table 1) | selectivity (Table 2)
C[C@@H]1CC[C@H]2[C@@H](C)C(=O)O[C@@H]3O[C@@]4(C)CC[C@@H]1[C@]32OO4 [artemisinin] | 1000 | 
O=C(C[C@H]1NCCC[C@@H]1O)Cn1cnccc1=O [compound 12] | >32 | 
O=C(C[C@H]1NCCC[C@@H]1O)Cn1ccc2ccccc2c1=O [compound 14] | >32 | 
CC1(C)[C@@H](N2CNc3ccccc3C2=O)C(O)=C[C@@H]2[C@@H](O)CCCN21 [compound 38] |  | >38
CNc1ccccc1C(=O)N[C@H]1C(O)=C[C@@H]2[C@@H](O)CCCN2C1(C)C [compound 39] |  | >28
